Results of unrelated studies side by side (data: NIAID ChemDB).

Shared fields: growth or infection tests; species: Herpes simplex virus 2; cell line: E6SM; endpoint: EC50

Rows are shuffled and stem from different studies. ECn is the concentration giving n% inhibition of infection, replication or growth. An empty or dashed field is not shown.

structure	strain or isolate	method	result
Cc1cn(CC[C@H](O)CCO)c(=O)[nH]c1=O	LYONS	cytopathic effect	>400 µg/mL
CC1(C)[C@@H](CO)CC[C@@]1(C)Cn1cnc2c(=O)[nH]cnc21	G	cytopathic effect	>400 µg/mL
CCC(Sc1ncnc2c1cnn2COCC(O)CO)C(N)=O	G	cytopathic effect	>400 µg/mL
CO[C@H](CO)[C@@H](O)CCn1cnc2c(N)ncnc21	G	cytopathic effect	>400 µg/mL
O=c1c2ncn(COC(CO)CO)c2nc2[nH]c(-c3ccccc3)cn12	LYONS	cytopathic effect	0.005 µg/mL
OC[C@H]1O[C@H](c2ccc(F)cc2F)C[C@@H]1O	LYONS	cytopathic effect	>400 µg/mL
C=C(N=CC)c1nc(-c2ccc(OC)cc2)n(C2O[C@H](CO)[C@@H](O)[C@H](O)[C@H]2O)n1	G	cytopathic effect	>200 µg/mL
CCc1cc([C@H]2C[C@H](O)[C@@H](CO)O2)c(F)cc1F	G	cytopathic effect	>400 µg/mL
Nc1nc2c(ncn2[C@H]2C=C[C@@H](CO)[C@H](O)C2)c(=O)[nH]1	G	cytopathic effect	0.07 µg/mL
CC(=O)OCCOCN1C=CC(=O)N(COCCOC(C)=O)S1(=O)=O	LYONS	-	>400 µg/mL
C=C(N=CC)c1nc(-c2ccc(C)cc2)n([C@@H]2O[C@H](CO)[C@@H](O)[C@H]2O)n1	G	cytopathic effect	>40 µg/mL
O=c1[nH]c(=O)n([C@H]2C[C@H](O)[C@@H](CO)O2)cc1/C=C/Br	LYONS	cytopathic effect	>80 µg/mL
CC1(CO)CCC(Cn2cnc3c(=O)[nH]cnc32)C1(C)C	G	cytopathic effect	>200 µg/mL
CC1(C)[C@@H](CO)CC[C@@]1(C)Cn1cnc2c(Cl)ncnc21	G	cytopathic effect	>400 µg/mL
CC1(CO)CCC(Cn2ccc(=O)[nH]c2=O)C1(C)C	G	cytopathic effect	>400 µg/mL
CC(=O)OCCOCN1C=C(C#N)C(N)=NS1(=O)=O	LYONS	-	>400 µg/mL
C=C(N=CC)c1nc(-c2cccc(OC)c2)n(C2O[C@H](CO)[C@@H](O)[C@H](O)[C@H]2O)n1	G	cytopathic effect	300 µg/mL
Nc1cc([C@H]2C[C@H](O)[C@@H](CO)O2)c(F)cc1F	196	cytopathic effect	>400 µg/mL
NC(=O)CSc1ncnc2c1cnn2CCCCO	G	cytopathic effect	>400 µg/mL
C/C(O)=C1\C(=N)N(COCCO)S(=O)(=O)N=C1N	LYONS	-	>400 µg/mL
CC=NC(=N)c1nc(-c2ccccc2)n(C/C=C/c2ccccc2)n1	G	cytopathic effect	>4 µg/mL
OC[C@H]1O[C@H](c2cc(F)c(F)cc2F)C[C@@H]1O	196	cytopathic effect	>400 µg/mL
OC[C@H]1O[C@@H](c2cc(C#CI)c(F)cc2F)C[C@@H]1O	G	cytopathic effect	>400 µg/mL
CC1(CO)CCC(Cn2nnc3c(=O)[nH]cnc32)C1(C)C	G	cytopathic effect	>200 µg/mL
Cc1cc([C@H]2C[C@H](O)[C@@H](CO)O2)c(F)cc1Cl	G	cytopathic effect	>400 µg/mL
C=Cc1cc([C@H]2C[C@H](O)[C@@H](CO)O2)c(F)cc1F	G	cytopathic effect	>400 µg/mL
Nc1ccn(CC[C@H](O)CCO)c(=O)n1	196	cytopathic effect	>400 µg/mL
NC1=CC(N)=NS(=O)(=O)N1COCCO	LYONS	-	>400 µg/mL
O=[N+]([O-])c1cc([C@H]2C[C@H](O)[C@@H](CO)O2)c(F)cc1F	LYONS	cytopathic effect	>400 µg/mL
C=C(N=CC)c1nc(-c2ccccc2)n(C2O[C@H](CO)[C@@H](O)[C@H](O)[C@H]2O)n1	G	cytopathic effect	>200 µg/mL
Cc1cc([C@@H]2C[C@H](O)[C@@H](CO)O2)c(F)cc1Cl	G	cytopathic effect	>400 µg/mL
CC=NC(=N)c1nc(-c2ccc(C)cc2)n(COCCO)n1	G	cytopathic effect	>40 µg/mL
OC[C@H]1O[C@H](c2cc(Br)c(F)cc2F)C[C@@H]1O	LYONS	cytopathic effect	>400 µg/mL
CC(Sc1ncnc2c1cnn2CCCCO)C(N)=O	G	cytopathic effect	>400 µg/mL
CC1(C)[C@@H](CO)CC[C@@]1(C)Cn1cc(I)c(=O)[nH]c1=O	G	cytopathic effect	>400 µg/mL

A second listing of 2 rows from above:

structure | strain or isolate | method | result
CCc1cc([C@H]2C[C@H](O)[C@@H](CO)O2)c(F)cc1F | G | cytopathic effect | >400 µg/mL
O=[N+]([O-])c1cc([C@H]2C[C@H](O)[C@@H](CO)O2)c(F)cc1F | LYONS | cytopathic effect | >400 µg/mL